Pooled drug test results. Numbers come from NIAID ChemDB, via PubChem.

Shared fields: growth or infection tests; agent: Rhinovirus

Rows are shuffled and stem from different studies.

| compound | read by | cell line | strain | measure | value |
|---|---|---|---|---|---|
| CCOC(=O)c1ccc(OCCCOc2ccc(-c3snc(SC)c3C#N)cc2)cc1 | cytopathic effect | HELA-OHIO | Serotype 63 (group B) | EC50 | >2 µM |
| O=P1(O)OCC2O[C@@H](n3cnc4c(NO)ncnc43)[C@H](O)C2O1 |  |  | TYPE 8 | MIC | 100 µg/mL |
| Cc1ccc(Cn2cnc3c(N(C)C)nc(C(F)(F)F)nc32)cc1 | plaque count | M-HELA | TYPE 5 | EC50 | >8 µM |
| CSc1ccc(C(=O)CCCCOc2ccc(C#N)cc2)cc1 | cytopathic effect | HeLa | Serotype 14 | EC50 | >307 µM |
| O[C@@H](c1nc2ccc(Cl)cc2[nH]1)[C@@H](O)c1nc2ccc(Cl)cc2[nH]1 | cytopathic effect | WI-38 | Serotype 42 | EC50 | 100 µg/mL |
| CSc1ncnc2c1ncn2[C@@H]1OC2COP(=O)(O)OC2[C@H]1O |  |  | TYPE 2 | MIC | 3.2 µg/mL |
| CCOC(=O)/C=C/[C@H](CCC(N)=O)NC(=O)[C@H](Cc1ccc(F)cc1)N(C)C(=O)[C@H](CC(C)C)NC(=O)c1cc(C)on1 | XTT | H1-HELA | Serotype 10 | EC50 | 0.14 µM |
| CS(=O)(=O)c1cnc2c(c1)CCC(c1ccccc1)O2 | cytopathic effect | HeLa | TYPE 1A | EC50 | >17 µM |
| O=C(CCCCOc1ccc(C2=NCCO2)cc1)c1ccccc1 | cytopathic effect | HeLa | Serotype 2 | EC50 | 34 µM |
| Fc1cccc(Cn2cnc3c(Nc4cccc(F)c4)nc(C(F)(F)F)nc32)c1 | plaque count | M-HELA | Serotype 34 | EC50 | 3 µM |
| COc1ccc2nc([C@@H](O)[C@@H](O)c3nc4ccc(OC)cc4[nH]3)[nH]c2c1 | cytopathic effect | WI-38 | Serotype 42 | EC50 | 10 µg/mL |
| N#Cc1ccc(Oc2ccc(Cl)c(Cl)c2)c(C#N)c1 | cytopathic effect | HeLa | TYPE 1A | EC50 | 173 µM |
| Cn1c2ccccc2c2nnc(SCCN3CCOCC3)nc21 | plaque count | WI-38 | 33342 | EC50 | 0.16 µg/mL |
| N#Cc1ccc(OCCCCC(=O)c2ccc(F)cc2)cc1 | cytopathic effect | HeLa | Serotype 14 | EC50 | >35 µM |
| CCN(CC)c1cc(-c2ccc(O)cc2O)on1 | cytopathic effect | HeLa | Serotype 2 | EC50 | >121 µM |
| O=c1c(Cc2ccccc2)coc2ccccc12 | plaque count | HeLa | TYPE 14 | EC50 | 6.2 µM |
| CCn1c2ccccc2c2nnc(NCCCO)nc21 | plaque count | WI-38 | 1059 | EC50 | 45 µg/mL |
| c1ccc(C2COc3ccccc3C2)cc1 | plaque count | M-HELA | Serotype 1B | EC50 | 0.417 µM |
| C#CCOc1cc(OC)ccc1-c1cc(N(CC)CC)no1 | cytopathic effect | HeLa | Serotype 51 (group B) | EC50 | >40 µM |
| Cc1cc(CCCOc2c(C)cc(-c3coc(C)n3)cc2C)on1 | plaque count |  | Serotype 3 | EC50 | 0.658 µg/mL |
| Cc1nc(-c2cc(C)c(OCCCc3cc(C4CC4)no3)c(C)c2)no1 | cytopathic effect | HeLa | Serotype 41 | EC50 | 0.142 µg/mL |
| COc1ccc(-c2cc(N3CCCC3)no2)c(O)c1 | cytopathic effect | HeLa | Serotype 86 (group A) | EC50 | >384 µM |
| O=C1c2ccccc2OCC1Cc1ccccc1 | plaque count | HeLa | TYPE 14 | EC50 | >50 µM |
| Clc1ccc2c(c1)CC(c1ccccc1)CO2 | cytopathic effect | M-HELA | Serotype 1B | EC50 | 0.82 µM |
| N#Cc1ccc(OCCCCC(=O)c2ccccc2)cc1 |  |  | serotype 1A 1B 2 6 14 15 21 22 25 29 30 41 42 45 59 63 67 70 72 86 89 | MIC80 | >267 µM |
| Cn1c2ccccc2c2nnc(NCCCO)nc21 | plaque count | WI-38 | 1059 | EC50 | 50 µg/mL |
| Cc1cc(CCCOc2c(C)cc(-c3noc(C(F)(F)F)n3)cc2C)on1 |  |  | Serotype 14 | EC50 | <0.16 µM |
| O=C(CCCCOc1c(Cl)cc(C2=NCCO2)cc1Cl)c1ccc(Cl)cc1 |  |  | serotype 1A 1B 2 6 14 15 21 22 25 29 30 41 42 45 59 63 67 70 72 86 89 | MIC80 | >35 µM |
| O=c1c(Cc2ccc(Cl)cc2)coc2ccccc12 | plaque count | HeLa | TYPE 1B | EC50 | 0.2 µM |
| CCOC(=O)c1ccc(OCCCCC(=O)c2ccc(C)c(C)c2)cc1 | cytopathic effect | HeLa | Serotype 2 | EC50 | >282 µM |
| CCOC(=O)c1ccc(OCCC2CCN(c3ccc(C)nn3)CC2)cc1 |  |  | Serotype 1A | EC90 | 0.95 µM |
| CC(O)CCNc1nnc2c3ccccc3n(C)c2n1 | plaque count | WI-38 | HGP | EC50 | 45 µg/mL |
| CC(C)C[C@H](NC(=O)OCc1ccccc1)C(=O)N[C@@H](Cc1ccccc1)C(=O)N[C@H](/C=C/c1ccno1)CCC(N)=O | XTT | H1-HELA | Serotype 14 | EC50 | 0.005 µM |
| CSc1nsc(-c2ccc(OCCOc3ccccc3)cc2)c1C#N | cytopathic effect | HELA-OHIO | Serotype 42 (group A) | EC50 | >20 µM |
| CCOC(=O)c1ccc(OCCCCC(=O)c2ccc(OC)cc2)cc1 | cytopathic effect | HeLa | Serotype 14 | EC50 | 2.2 µM |
| CCOC(=O)c1ccc(OCCC2CCN(c3ccc(C)nn3)CC2)cc1 | cytopathic effect | HELA-OHIO | Serotype 39 (group B) | EC50 | 0.02 µM |
| CCOc1cc(CCCOc2c(C)cc(-c3noc(C)n3)cc2C)on1 | cytopathic effect | HeLa | Serotype 41 | EC50 | 0.153 µg/mL |
| Cc1cc(CCCCCOc2cc(Cl)c(-c3nnco3)c(Cl)c2)on1 |  |  | Serotype 21 | MIC80 | 0.24 µg/mL |
| CCOC(=O)c1ccc(OCCC2CCN(c3ccc(C)nn3)CC2)cc1 | cytopathic effect | HeLa | Serotype 16 | EC50 | <0.1 µg/mL |
| CCOC(=O)/C=C/[C@H](C[C@@H]1CCNC1=O)NC(=O)[C@H](Cc1ccc(F)cc1)NC(=O)[C@@H](NC(=O)c1cc(C)on1)C(C)(C)C | XTT | H1-HELA | Serotype 13 | EC50 | 0.03 µM |
| COc1ccc(OCCCCCCn2ccnc2)c(Cl)c1 | plaque count | HeLa | TYPE 10 | EC50 | 29.1 µM |
| COc1ccc2nc([C@@H](O)[C@H](O)c3nc4ccc(OC)cc4[nH]3)[nH]c2c1 | cytopathic effect | WI-38 | Serotype 1A | EC50 | 10 µg/mL |
| Cc1cc(CCCCCCCOc2ccc(C3=NCCO3)cc2)on1 |  |  | serotype 1A 1B 2 6 14 15 21 22 25 29 30 41 42 45 59 63 67 70 72 86 89 | MIC80 | 3.51 µM |
| Nc1nc2c(ccn2[C@@H]2C[C@H](CO)[C@@H](O)[C@@H]2O)c(=O)[nH]1 |  |  | TYPE 1B | MIC | >100 µg/mL |
| COc1ccc2nc(C[C@@H](O)c3nc4ccc(OC)cc4[nH]3)[nH]c2c1 | cytopathic effect | WI-38 | Serotype 1A | EC50 | 10 µg/mL |
| CSc1nsc(-c2ccc(OCCc3ccccc3)cc2)c1C#N | cytopathic effect | HELA-OHIO | Serotype 63 (group B) | EC50 | >20 µM |
| COc1ccc(CC2COc3ccccc3C2=O)cc1 | plaque count | HeLa | TYPE 1B | EC50 | 5.98 µM |
| CCOC(=O)c1ccc(OCCCCC(=O)c2ccc(Cl)cc2)cc1 |  |  | serotype 1A 1B 2 6 14 15 21 22 25 29 30 41 42 45 59 63 67 70 72 86 89 | MIC80 | >277 µM |
| N#Cc1ccc(Oc2ccc(F)cc2)nc1 | cytopathic effect | HeLa | TYPE 2 | EC50 | 34 µM |
| CCOc1cc(OC)ccc1-c1cc(N(CC)CC)no1 | cytopathic effect | HeLa | Serotype 45 (group A) | EC50 | >90 µM |
| Cn1c2ccc(Cl)cc2c2nnc(NCCCO)nc21 | plaque count | WI-38 | 1059 | EC50 | 220 µg/mL |
| Clc1ccc(C2=Cc3ccccc3OC2)cc1 | plaque count | M-HELA | Serotype 1B | EC50 | 1.031 µM |
| CSc1nsc(-c2ccc(OCCOc3ccc([N+](=O)[O-])cc3)cc2)c1C#N | cytopathic effect | HELA-OHIO | Serotype 72 (group A) | EC50 | >2 µM |
| O=C1c2c(Cl)cc(Cl)cc2OCC1Cc1ccc(Cl)cc1 | plaque count | HeLa | TYPE 1B | EC50 | 3.7 µM |
| CCOC(=O)/C=C/[C@H](C[C@@H]1CCNC1=O)NC(=O)[C@H](Cc1ccccc1)NC(=O)[C@@H](NC(=O)COc1ccccc1)C(C)C | XTT | H1-HELA | Serotype 14 | EC50 | 0.03 µM |
| Cc1cc(CCCCCOc2cc(Cl)c(-c3nnc(C)o3)c(Cl)c2)on1 |  |  | Serotype 14 | MIC80 | 0.19 µg/mL |
| CSc1nsc(-c2ccc(OCCOc3ccc(C#N)cc3)cc2)c1C#N | cytopathic effect | HELA-OHIO | Serotype 15 (group B) | EC50 | >2 µM |
| Brc1ccc2c(c1)C=C(c1ccccc1)CO2 | cytopathic effect | M-HELA | Serotype 1B | EC50 | 1.92 µM |
| O=C1/C(=C/c2ccccc2)COc2ccccc21 | plaque count | HeLa | TYPE 1B | EC50 | >6.25 µM |
| Brc1cnc2c(c1)C=CC(c1ccccc1)O2 | cytopathic effect | HeLa | TYPE 9 | EC50 | >3.47 µM |
| CCN(CC)c1cc(-c2ccc(OC)cc2OC)on1 | cytopathic effect | HeLa | Serotype 15 (group B) | EC50 | 2.2 µM |
| CCOC(=O)c1ccc(OCCC2CCN(c3ccc(C)nn3)CC2)cc1 | neutral red | KB | 5426-CV26 (ICAM-1 receptor group 25) | EC50 | 0.108 µM |
| COCc1cc(CCCOc2c(Cl)cc(-c3noc(C)n3)cc2Cl)on1 | cytopathic effect | HeLa | Serotype 22 | EC50 | 0.009 µg/mL |
| CS(=O)(=O)c1ccc(Oc2ccc(Cl)c(Cl)c2)nc1 | cytopathic effect |  | 29 | EC50 | 4.1 µM |
| COC(=O)[C@H](Cc1cccc2ccccc12)Nc1nc2ccc(NC(=O)OC(C)(C)C)c(C)c2c(=O)o1 | XTT | H1-HELA | Serotype 14 | EC50 | 0.1 µM |

Repeating the final 6 entries:

compound,read by,cell line,strain,measure,value
Brc1cnc2c(c1)C=CC(c1ccccc1)O2,cytopathic effect,HeLa,TYPE 9,EC50,>3.47 µM
CCN(CC)c1cc(-c2ccc(OC)cc2OC)on1,cytopathic effect,HeLa,Serotype 15 (group B),EC50,2.2 µM
CCOC(=O)c1ccc(OCCC2CCN(c3ccc(C)nn3)CC2)cc1,neutral red,KB,5426-CV26 (ICAM-1 receptor group 25),EC50,0.108 µM
COCc1cc(CCCOc2c(Cl)cc(-c3noc(C)n3)cc2Cl)on1,cytopathic effect,HeLa,Serotype 22,EC50,0.009 µg/mL
CS(=O)(=O)c1ccc(Oc2ccc(Cl)c(Cl)c2)nc1,cytopathic effect,,29,EC50,4.1 µM
COC(=O)[C@H](Cc1cccc2ccccc12)Nc1nc2ccc(NC(=O)OC(C)(C)C)c(C)c2c(=O)o1,XTT,H1-HELA,Serotype 14,EC50,0.1 µM

MIC50, MIC90 and the like: level of inhibition, or share of isolates inhibited. An empty or dashed field is not shown. ECn is the concentration giving n% inhibition of infection, replication or growth.